Measured values published in patent US11820973B2, “Methods and system for interfering with viability of bacteria and related compounds and compositions” (CALIFORNIA INSTITUTE OF TECHNOLOGY, priority 2011, dated 2023).

Legend:
[1] = system: P. aeruginosa PA14 wild type and feoB::MAR2xT7 mutant; experiment: Planktonic growth in 1% TSB-based biofilm medium; details: amounts used in the biofilm experiments, batch cultures, 37° C.
[2] = system: P. aeruginosa PA14 siderophore null strain (ΔpvdAΔpchE); experiment: Flow cell biofilm development, siderophore null strain, 1% TSB; details: 1.0 μM Fe(OH)3(s); for Avg. thickness of biomass: ΔpvdAΔpchE, calculated for the area covered by biomass, 10 μM PCA or PYO
[3] = system: P. aeruginosa PA14 feoB::MAR2xT7 mutant; experiment: Flow cell biofilm development, feoB::MAR2xT7 mutant, 1% TSB with conalbumin; details: PCA added to conalbumin-treated medium

SMILES | Effect on planktonic growth [1] | Avg. thickness of biomass ([2]; Day 2) [μm] | Avg. thickness of biomass ([2]; Day 4) [μm] | Avg. thickness of biomass ([2]; Day 6) [μm] | Rescue of the conalbumin-induced biofilm defect [3] | Rescue of biofilm formation by the ΔpvdAΔpchE mutant ([2]; 10 μM PCA or PYO added to 1% TSB)
O=C(O)c1cccc2nc3ccccc3nc12 [PCA, Phenazine-1-carboxylic acid] | had no effect on the growth of either strain | 12.6 ± 1.4 | 10.8 ± 0.9 | 15.1 ± 4.4 | failed to rescue the conalbumin-induced biofilm defect | –
Cn1c2cccc(=O)c-2nc2ccccc21 [PYO, Pyocyanin] | does not inhibit planktonic growth | 13.5 ± 0.4 | 10.1 ± 0.4 | 21.4 ± 2.1 | – | rescued the biofilm defect regardless of whether Fe(OH)3(s) was present
